Measured values from several laboratories, pooled; numbers as filed in NIAID ChemDB.

All rows: tests in culture; agent: Candida albicans

Conditions beyond the fields shown may differ between rows. ECn is the concentration giving n% inhibition of infection, replication or growth. A number after MIC or MFC names an inhibition level or a share of isolates. Blank or dashed fields: not listed here. Two numbers with a dash give a range or band.

compound | measure | setting | strain or isolate | method | result
O=C1C(Br)=C(Nc2ccc(Cl)cc2)C(=O)c2ccccc21 | MIC |  |  |  | 100 µg/mL
OC(CN1CCN(c2ccc(OCc3ccncc3)cc2)CC1)(Cn1cncn1)c1ccc(F)cc1F | MIC80 |  | FHB1 |  | 1 µg/mL
Cc1cc(NC2=C(Cl)C(=O)c3ccccc3C2=O)no1 | MIC |  |  |  | 50 µg/mL
Cc1cc(-c2c(N=O)c(C)nn2CCO)no1 | MIC |  |  |  | 66 µM
C=CCSCC[C@H](N)C(=O)N[C@H]1[C@@H](O)[C@H](n2cnc3c(N)ncnc32)O[C@@H]1C(=O)O | MIC |  | FP633 |  | 12.5 µg/mL
Cc1ccc2oc(/C(=N/O)c3ccccc3)c(C)c2c1 | MIC |  | Clinical isolate |  | 12.5 µg/mL
COc1ccc(C2CC(=O)C(C)C(c3ccc(OC)cc3)N2OCCc2nc3ncccc3[nH]2)cc1 | MIC |  | 51 (NCIM-C27) |  | 25 µg/mL
Cc1c(C(=O)c2ccccc2)oc2ccc(Cl)cc12 | MIC |  | NRRL Y-27077 |  | 25 µg/mL
O=C1CS[C@H](c2ccc(Cl)cc2)N1c1nc(N2CCOCC2)n[nH]1 | MIC |  | A39 | broth dilution | 25 µg/mL
CCCn1nc(C)c(N=O)c1-c1cc(C)on1 | MFC |  |  |  | 7.4 µM
COc1ccc(C2CC(=O)CC(c3ccc(OC)cc3)N2OCCc2nc3ncccc3[nH]2)cc1 | MIC |  | NCIM-C27 |  | 50 µg/mL
Cn1ccnc1C(CC(=O)O)c1nccn1C | MIC | 24 h | ATCC 10231 | broth dilution | >512 µg/mL
Nc1ncnc2c1ncn2[C@@H]1O[C@H](C(=O)O)[C@@H](NC(=O)[C@H](N)CSCC(=O)O)[C@H]1O | MIC |  | FP633 |  | >100 µg/mL
O/N=C(\c1ccccc1)c1oc2ccccc2c1Cn1cncn1 | MIC |  | Clinical isolate |  | 12.5 µg/mL
Cc1c(C(=O)N(CCO)CCO)cc(-c2ccc([N+](=O)[O-])cc2)n1Cc1ccc(Cl)cc1 | EC50 |  | 20 strains |  | >200 µg/mL
CN1CCN(c2n[nH]c(N3C(=O)CS[C@@H]3c3ccc4c(c3)OCO4)n2)CC1 | MIC |  | 159.95 | broth dilution | 1.58 µg/mL
CC#CC#CC#Cc1ccccc1 | MIC |  |  |  | 12.5–50 µg/mL
Cc1c(/C(=N/O)c2ccccc2)oc2ccc(Cl)cc12 | MIC |  | NRRL Y-27077 |  | 5 µg/mL
CC(C)CCCCCCCCCC1CC(=O)NCC(=O)N[C@@H](CCCCN)C(=O)N[C@@H](C(C)C)C(=O)N1 | MIC |  | IFM 40009 |  | 1.25 µg/mL
CCOC(=O)C(C#N)C(c1cc2cccc(CC)c2n2nnnc12)P(=O)(OCC)OCC | MIC |  | MTCC 277 | agar diffusion | 10 µg/mL
CON=C1C2CC(C)CC1C(c1cccc(F)c1)NC2c1cccc(F)c1 | MIC90 |  |  |  | 8 µg/mL
CCCCCCCCn1c(-c2ccc([N+](=O)[O-])cc2)cc(C(=O)N2CCN(C)CC2)c1C | MIC |  | 20 strains |  | >200 µg/mL
COc1ccc(C[C@H](NC(=O)[C@H](N)CCCN=C(N)N)C(=O)N[C@H]2[C@@H](O)[C@H](n3cnc4c(N)ncnc43)O[C@@H]2C(=O)O)cc1 | MIC |  | FP633 |  | >100 µg/mL
CCCCCCn1c(-c2ccc([N+](=O)[O-])cc2)cc(C(=O)N2CCN(C)CC2)c1C | EC50 |  | 20 strains |  | >200 µg/mL
CCCCCOc1ccc(-c2ccc(-c3ccc(C(=O)N[C@H]4CCCNC(=O)C5C[C@H](NC(=O)CCc6ccccc6)CN5C(=O)C(C(C)O)NC(=O)C(CCc5ccc(O)cc5)NC(=O)C5C[C@@H](O)CN5C(=O)C(C(C)O)NC4=O)cc3)cc2)cc1 | MIC |  | ATCC 62376 |  | 6.25 µg/mL
O=C(c1c[nH]c2ccccc12)[C@H](O)CO | MIC |  | ATCC 10231 | turbidity | >128 µg/mL
CN[C@@H]1[C@H](O[C@@H]2OC[C@@H](O)[C@H](O)[C@H]2O)[C@@H](O)[C@H](O[C@H]2c3cc(C)c(C(=O)NCC(=O)O)c(O)c3-c3c(cc4c(c3O)C(=O)c3cc(OC)cc(O)c3C4=O)[C@@H]2O)O[C@@H]1CO | MIC |  | IAM4888 |  | 6.3 µg/mL
O=C1C(Cl)=C(Nc2cccc([N+](=O)[O-])c2)C(=O)c2ccccc21 | MIC |  |  |  | 100 µg/mL
CCC/C=C/C=C/C=C/C(=O)OCC1O[C@@H](OC2C(CO)O[C@]3(OCc4cc(O)cc(O)c43)[C@H](O)[C@H]2OC(=O)/C=C/C=C/CC(O)/C=C/C=C/C=C/CCC)[C@H](O)[C@@H](O)[C@H]1O | MIC |  | ATCC 32354 |  | 0.2 µg/mL
Clc1cc(Cl)c2c(c1)CCc1ccccc1C2n1ccnc1 | MIC50 |  | 12 isolates |  | 0.03 µg/mL
CC[C@@H](C)[C@H](OC(=O)/C=C/c1ccccc1)[C@H](C)[C@H](O)C/C=C/C=C/C(N)=O | MIC |  |  |  | 1 µg/mL
O/N=C(\c1ccccc1)c1oc2ccc(Cl)cc2c1Cn1ccnc1 | MIC |  | NRRL Y-27077 |  | 25 µg/mL
CCCCCOc1ccc(-c2ccc(-c3ccc(C(=O)N[C@H]4C[C@@H](O)[C@@H](O)NC(=O)[C@@H]5[C@@H](O)[C@@H](C)CN5C(=O)[C@H]([C@H](C)O)NC(=O)[C@H]([C@H](O)[C@@H](O)c5ccc(O)cc5)NC(=O)[C@@H]5C[C@@H](O)CN5C(=O)[C@H]([C@H](C)O)NC4=O)cc3)cc2)cc1 | MIC90 |  | 99 isolates |  | 0.08 µg/mL
C[C@@H](c1ncncc1F)[C@](O)(Cn1cncn1)c1ccc(F)cc1F | MIC80 |  | OY-2-76 (FLU-S) |  | 0.03 µg/mL
NC1=C(Cl)C(=O)c2ccccc2C1=O | MIC |  |  |  | 6.3 µg/mL
CCn1nc(-c2cc(C)on2)c(N=O)c1C | MIC |  |  |  | 66 µM
CCc1ccc2c(C)c(C(=O)c3ccc(Cl)cc3)oc2c1 | MIC |  | Clinical isolate |  | 50 µg/mL
Nc1ncnc2c1ncn2[C@@H]1O[C@H](C(=O)O)[C@@H](NC(=O)[C@@H](N)Cc2cnc[nH]2)[C@H]1O | MIC |  | FP633 |  | 12.5 µg/mL
CC(N1CCN(c2ccc(-n3cnnn3)cc2)C1=O)[C@@](O)(Cn1cncn1)c1ccc(F)cc1F | MIC |  | CA383 |  | >16 µg/mL
Cc1cc(-c2nn(C)c(C)c2N=O)no1 | MFC |  |  |  | >200 µM
C[C@H]1[C@H](O)[C@@H](C)/C=C/C=C/C=C/C=C/C=C/C=C/C=C/[C@H](O[C@@H]2O[C@H](C)[C@@H](O)[C@H](N)[C@@H]2O)C[C@@H]2O[C@](O)(C[C@@H](O)C[C@@H](O)CC[C@H](O)[C@@H](O)C[C@@H](O)CC(=O)O[C@H]1C)C[C@H](O)[C@H]2C(=O)O | MIC |  | 315 |  | 1 µg/mL
C[C@@H](N1CCN(c2ccc(-n3cnnn3)cc2)C1=O)[C@@](O)(Cn1cncn1)c1ccc(F)cc1F | MIC |  | CA383 |  | >16 µg/mL
CCCCCCn1c(-c2ccc([N+](=O)[O-])cc2)cc(C(=O)N(CCO)CCO)c1C | MIC |  | 20 strains |  | >200 µg/mL
Cc1ccc(NC2=C(O)c3ccccc3C(=O)C2=O)cc1 | MIC |  |  |  | 100 µg/mL
CCC(C)CCCCCCC1CC(=O)NCC(=O)N[C@@H](CCCN)C(=O)N[C@@H](C(C)C)C(=O)N1 | MIC |  | ATCC 10231 |  | 2.5 µg/mL
CC1C(=O)CC(c2ccc(Cl)cc2)N(OCCc2nc3ncccc3[nH]2)C1c1ccc(Cl)cc1 | MIC |  | 6 (NCIM-C27) |  | 50 µg/mL
Cc1c(/C(=N\O)c2ccc(Cl)cc2)oc2ccccc12 | MIC |  | Clinical isolate |  | 12.5 µg/mL
C[C@H]1[C@H](O)[C@@H](C)/C=C/C=C/C=C/C=C/C=C/C=C/C=C/[C@H](O[C@@H]2O[C@H](C)[C@@H](O)[C@H](N)[C@@H]2O)C[C@@H]2O[C@](O)(C[C@@H](O)C[C@@H](O)CC[C@H](O)[C@@H](O)C[C@@H](O)CC(=O)O[C@H]1C)C[C@H](O)[C@H]2C(=O)O | MIC |  | 2381E |  | 0.06 µg/mL
CCOC(=O)C(C#N)C(c1cc2cccc(C)c2n2nnnc12)P(=O)(OCC)OCC | MIC |  | MTCC 277 | agar diffusion | 15 µg/mL
NCCSC[C@@H](N)C(=O)N[C@H]1[C@@H](O)[C@H](n2cnc3c(N)ncnc32)O[C@@H]1C(=O)O | MIC |  | FP633 |  | 25 µg/mL
O=C(O)c1ccc(NC2=C(Cl)C(=O)c3ccccc3C2=O)cc1 | MIC |  |  |  | 25 µg/mL
COc1ccc(C[C@H](N)C(=O)N[C@H]2[C@@H](O)[C@H](n3ccc(=O)[nH]c3=O)O[C@@H]2C(=O)O)cc1 | MIC |  | FP633 |  | >100 µg/mL
CC1C(=O)C(C)C(c2ccc(Cl)cc2)N(OCCc2nc3ncccc3[nH]2)C1c1ccc(Cl)cc1 | MIC |  | 51 (NCIM-C27) |  | 12.5 µg/mL
C[C@@H](c1ncncc1F)[C@](O)(Cn1cncn1)c1ccc(F)cc1F | MIC90 |  | 32 strains |  | 0.5 µg/mL
CCCOC(=O)CC(c1nccn1C)c1nccn1C | MIC | 24 h | ATCC 10231 | broth dilution | >512 µg/mL
COc1cc(O)c2c(c1)C(=O)c1c(cc3c(c1O)-c1c(cc(C)c(C(=O)NC(CO)C(=O)O)c1O)[C@H](OC1OC(C)C(N(C)C)C(OC4OCC(O)C(O)C4O)C1O)[C@H]3O)C2=O | MIC |  | A9540 |  | 6.3 µg/mL
Cn1ccnc1Cc1nccn1C | MIC | 24 h | ATCC 10231 | broth dilution | 500 µg/mL
COc1ccc2c(C)c(/C(=N/O)c3ccc(Cl)cc3)oc2c1 | MIC |  | NRRL Y-27077 |  | 5 µg/mL
CC(C)c1cccc(-c2nc3[n+]([nH]2)CCN([C@H](C)[C@](O)(C[n+]2cnc[nH]2)c2ccc(F)cc2F)C3)c1 | MIC |  | Y0109 |  | 0.125 µg/mL
CC1(C)CCC[C@]2(C)[C@@H](C=O)C(C=O)=CC[C@@H]12 | MFC |  | ATCC 18804 and ATCC 28815 26555 24433 64544 64550 |  | 1.56–3.13 µg/mL
C[C@@H]1C[C@@H](O)c2c(O[C@H]3O[C@H](CO)[C@@H](O)[C@H]3O)cccc2O1 | MIC |  | ATCC 32354 | turbidity | >128 µg/mL
COc1ccc2c(Cc3ccc(C(C)(C)C)cc3)c3[n+](cc2c1OC)CCc1cc2c(cc1-3)OCO2 | MIC |  | ATCC62342 |  | 3.13 µg/mL
CC1S[C@H](c2ccc(Cl)cc2)N(c2nc(N3CCOCC3)n[nH]2)C1=O | MIC |  | A39 | broth dilution | >100 µg/mL
C[C@@H](N1CC[n+]2cc(-c3ccccc3)[nH]c2C1)[C@](O)(C[n+]1cnc[nH]1)c1ccc(F)cc1F | MIC |  | Y0109 |  | 0.0325 µg/mL
Cc1ccc(NC2=C(Cl)C(=O)c3ccccc3C2=O)cc1 | MIC |  |  |  | 100 µg/mL
Nc1ncnc2c1ncn2[C@@H]1O[C@H](C(=O)NCCS(=O)(=O)O)[C@@H](NC(=O)[C@H](N)CSCc2ccccc2)[C@H]1O | MIC |  | FP633 |  | >100 µg/mL
CCCCCCCCON1CCN(c2ccc(-c3ccc(C(=O)N[C@H]4CCCNC(=O)C5C[C@H](N)CN5C(=O)C(C(C)O)NC(=O)C(CCc5ccc(O)cc5)NC(=O)C5C[C@@H](O)CN5C(=O)C(C(C)O)NC4=O)cc3)cc2)CC1 | MIC |  | ATCC 62376 |  | 0.2 µg/mL
Cc1c(C(=O)N(CCO)CCO)cc(-c2ccc([N+](=O)[O-])cc2)n1Cc1ccccc1 | EC50 |  | 20 strains |  | >200 µg/mL
CCCCCOc1ccc(-c2ccc(-c3ccc(C(=O)N[C@H]4CCCNC(=O)C5C[C@H](N)CN5C(=O)C(CCCN(C)C)NC(=O)C(CCc5ccc(O)cc5)NC(=O)C5C[C@@H](O)CN5C(=O)C(C(C)O)NC4=O)cc3)cc2)cc1 | MIC |  | ATCC 10231 |  | 0.39 µg/mL
CCCCCOc1ccc(-c2ccc(-c3ccc(C(=O)N[C@H]4C[C@@H](O)[C@@H](O)NC(=O)[C@@H]5[C@@H](O)[C@@H](C)CN5C(=O)[C@H]([C@H](C)O)NC(=O)[C@H]([C@H](O)[C@@H](O)c5ccc(O)cc5)NC(=O)[C@@H]5C[C@@H](O)CN5C(=O)[C@H]([C@H](C)O)NC4=O)cc3)cc2)cc1 | MIC |  | OY-31.5 |  | 0.015 µg/mL
CCCCCOc1ccc(-c2ccc(-c3ccc(C(=O)N[C@H]4CCCNC(=O)C5C[C@H](NC(=O)CC)CN5C(=O)C(C(C)O)NC(=O)C(CCc5ccc(O)cc5)NC(=O)C5C[C@@H](O)CN5C(=O)C(C(C)O)NC4=O)cc3)cc2)cc1 | MIC |  | ATCC 62376 |  | 0.39 µg/mL
COc1ccc(C[C@H](N)C(=O)N[C@H]2[C@@H](O)[C@H](n3cnc4c(OC)ncnc43)O[C@@H]2C(=O)O)cc1 | MIC |  | FP633 |  | >100 µg/mL

The first 9 rows once more:

O=C1C(Br)=C(Nc2ccc(Cl)cc2)C(=O)c2ccccc21 ; measure: MIC ; result: 100 µg/mL
OC(CN1CCN(c2ccc(OCc3ccncc3)cc2)CC1)(Cn1cncn1)c1ccc(F)cc1F ; measure: MIC80 ; strain or isolate: FHB1 ; result: 1 µg/mL
Cc1cc(NC2=C(Cl)C(=O)c3ccccc3C2=O)no1 ; measure: MIC ; result: 50 µg/mL
Cc1cc(-c2c(N=O)c(C)nn2CCO)no1 ; measure: MIC ; result: 66 µM
C=CCSCC[C@H](N)C(=O)N[C@H]1[C@@H](O)[C@H](n2cnc3c(N)ncnc32)O[C@@H]1C(=O)O ; measure: MIC ; strain or isolate: FP633 ; result: 12.5 µg/mL
Cc1ccc2oc(/C(=N/O)c3ccccc3)c(C)c2c1 ; measure: MIC ; strain or isolate: Clinical isolate ; result: 12.5 µg/mL
COc1ccc(C2CC(=O)C(C)C(c3ccc(OC)cc3)N2OCCc2nc3ncccc3[nH]2)cc1 ; measure: MIC ; strain or isolate: 51 (NCIM-C27) ; result: 25 µg/mL
Cc1c(C(=O)c2ccccc2)oc2ccc(Cl)cc12 ; measure: MIC ; strain or isolate: NRRL Y-27077 ; result: 25 µg/mL
O=C1CS[C@H](c2ccc(Cl)cc2)N1c1nc(N2CCOCC2)n[nH]1 ; measure: MIC ; strain or isolate: A39 ; method: broth dilution ; result: 25 µg/mL